Measured values from several laboratories, pooled; numbers as filed in NIAID ChemDB.

Shared fields: tests in culture; organism: HIV-1

a–b is a range or a potency band. Rows are shuffled and stem from different studies. An empty or dashed field is not shown. ECn is the concentration giving n% inhibition of infection, replication or growth.

smiles	strain or isolate	mutations	cells	endpoint	method	value
COc1cccc2[nH]cc(C(=O)C(=O)N3CCN(C(=O)c4ccccc4)C[C@H]3C)c12	SF2		MT-2/CXCR4	EC50	virus yield	0.0265 µM
CCc1c(Cc2ccc(OC)c(OC)c2)n(COCCCc2ccccc2)c(=O)[nH]c1=O	EFVR	K103R/V179D/P225H	MT-4	EC50	MTT	>38 µM
Cc1cn(C2CC(n3nnc(C4CC4)c3C3(C(F)(F)F)OC(=O)Nc4ccc(Cl)cc43)C(CO)O2)c(=O)[nH]c1=O	VB59		TZM-bl	EC50	luminescence	6.33 µg/mL
CN(C)c1ccc(Nc2c3ccc(NC(=O)CCN4CCCC4)cc3nc3cc(NC(=O)CCN4CCCC4)ccc23)cc1	BaL		PBMC	EC50	p24 / antigen	17.4 µM
Nc1ccc(Cl)cc1S(=O)(=O)n1cccc1C(=O)OC1CCCCC1	IIIB		MT-4	EC50	cytopathic effect / MTT	>200 µM
C/C(=N\NC(=O)CN1c2c(-c3ccccc3)n[nH]c2-c2ccccc2S1(=O)=O)c1ccc(C)s1			PBMC	EC90	RT activity	>100 µM
Cc1cn([C@@H]2CC[C@H](COC(=O)CCCCCCCCC(=O)OC[C@H]3O[C@@H](n4cc(C)c(=O)[nH]c4=O)C[C@@H]3F)O2)c(=O)[nH]c1=O	IIIB		CEM	EC50		0.004 µM
CCOCn1c(Cc2ccc(OC)c(OC)c2)c(CC)c(=O)[nH]c1=O	IIIB		MT-4	EC50	MTT	59 µM
COc1ccc2nc(-c3cccc(N)c3)ccc2c1	NL4-3-Luc		MT-2	EC50	luciferase	9.67 µM
COc1cc2c(OC3OC(C)C(OC4OC(CO)C(O)C(O)C4O)C(O)C3OC(C)=O)c3c(c(-c4ccc5c(c4)OCO5)c2cc1OC)C(=O)OC3	89.6		PBMC	EC50	p24 / ELISA	0.015 µM
COc1ccc(-c2scc3c(N4CC[C@@H](NC(C)=O)C4)nc(C)nc23)cc1OC			H9	EC50	p24	>100 µM
Cc1nnc(C(=O)N(C)C2COCCn3c2nc(C(=O)NCc2ccc(F)cc2)c(O)c3=O)o1			MT-4	EC95	p24	<1 µM
CCNC(=O)c1cccn1S(=O)(=O)c1cc(Cl)ccc1[N+](=O)[O-]	IIIB		MT-4	EC50	cytopathic effect / MTT	>16.6 µM
CC1CN(C(=O)c2ccccc2)CCN1C(C#N)C(=O)c1ccc2cc(O)ccc2n1			HeLa	EC50	luciferase / reporter gene	<1 µM
COC(c1ccc(F)cc1)C(F)(F)c1nc2ccccc2o1	LAI		CEM + CEM-SS	EC50	RT activity	>100 µM
CCc1c(Cc2ccc(C)cc2)n(COCCc2ccccc2)c(=O)[nH]c1=O	N119	Y181C	MT-4	EC50	MTT	>60 µM
CCn1cc(C(=O)O)c(=O)c2cc(F)c(N3CCN(c4ccccc4OC)CC3)c(OC(F)F)c21	RF		MT-4	EC50	cytopathic effect / MTT	0.3 µM
C[Si](O)(CCCn1cnc2c(N)ncnc21)c1ccccc1	IIIB		MT-2	EC50	MTT	1 µM
C/C=C1/N=C(c2ccccc2)N(c2nc(C)cc(Cl)n2)C1=O				EC50	RT activity	43.22 µg/mL
C=Cn1cc(C(=O)O)c(=O)c2cc(N)c(N3CCN(c4ccccn4)CC3)cc21	IIIB		PBMC	EC50		0.17 µM
CC(C)N1CCn2c(nc(C(=O)NCc3ccc(F)cc3)c(O)c2=O)C(N(C)C(=O)C(=O)N(C)C)C1			MT-4	EC95	p24	<1 µM
N#CC(C(=O)c1ccc2cnccc2n1)N1CCN(C(=O)c2ccccc2)CC1			HeLa	EC50	luciferase / reporter gene	>5 µM
FC(c1ccc(-c2ccccc2)cc1)C(F)(F)c1nc2ccccc2o1	LAI		CEM + CEM-SS	EC50	RT activity	>100 µM
COCCOC(=O)c1cccn1S(=O)(=O)c1cc(Cl)ccc1[N+](=O)[O-]	IIIB		MT-4	EC50	cytopathic effect / MTT	>12 µM
CCCc1cc(=O)oc2c3c(c4c(c12)OC(C)(C)CC4)O[C@@H](C)[C@H](C)[C@@H]3O	TIBO R82150-resistant (RT A98G V108I)	RT-A98G V108I	CEM + CEM-SS	EC50	XTT	5.1 µM
COc1ccc2c(c1)[C@@H](N1CCCC1=O)C[C@@H](c1cccc(N)c1)N2	NL4-3-Luc		MT-2	EC50	luciferase	31.3 µM
CCc1c(Cc2cc(C)cc(C)c2)n(COCC2CC2)c(=O)[nH]c1=O	N119	Y181C	MT-4	EC50	MTT	5.1 µM
CC(C)[C@H](NC(=O)[C@H](Cc1cccc2ccccc12)CS(=O)(=O)C(C)(C)C)C(=O)N[C@@H](Cc1ccc2c(c1)OCO2)[C@@H](O)[C@H](O)[C@H](Cc1ccc2c(c1)OCO2)NC(=O)[C@@H](NC(=O)[C@H](Cc1cccc2ccccc12)CS(=O)(=O)C(C)(C)C)C(C)C	D34		PBLC	EC50	p24	0.02 µM
Cc1cc(=O)[nH]c(N2C(=O)/C(=C\c3ccc(Cl)cc3)N=C2c2ccccc2)n1				EC50	RT activity	60.58 µg/mL
CCc1c(Cc2cc(C)cc(C)c2)n(COCCCc2ccccc2)c(=O)[nH]c1=O	A17	K103N/Y181C	MT-4	EC50	MTT	>43 µM
Nn1cc(C(=O)O)c(=O)c2ccc(N3CCN(c4nc5ccccc5s4)CC3)cc21	IIIB		MT-4	EC50	MTT	2.3 µM
Cn1nncc1CN1CCn2c(nc(C(=O)NCc3ccc(F)cc3)c(O)c2=O)C1(C)C			MT-4	EC95	p24	<1 µM
CC(C)[C@H](NC(=O)COc1cccc2ccccc12)C(=O)N[C@@H](Cc1ccccc1)[C@@H](O)[C@H](O)[C@H](Cc1ccccc1)NC(=O)[C@@H](NC(=O)COc1cccc2ccccc12)C(C)C	D34		PBLC	EC50	p24	0.041 µM
COc1cc(/C=C2/N=C(c3ccccc3)N(c3nc(C)cc(=O)[nH]3)C2=O)ccc1O				EC50	RT activity	54.54 µg/mL
NC1=NS(=O)(=O)N(Cc2ccccc2)c2c1ncn2[C@@H]1CS[C@@H](CO)O1	RF		MT-4	EC50		>100 µg/mL
C[C@@H]1CN(C(=O)c2ccccc2)CCN1C(=O)C(=O)c1ccc2ccccc2c1			HeLa	EC50	luciferase / reporter gene	<1 µM
Nc1nc(F)nc2c1ncn2[C@H]1S[C@@H](CO)C=C1F	LAI		PBMC	EC50	cytopathic effect / MTT	11.5 µM
COc1ccc(-n2c(C)nc3c(N4CC[C@@H](NC(C)=O)C4)ncnc32)cc1OC			H9	EC50	p24	>100 µM
CC1CN(C(=O)c2ccccc2)CCN1C(=O)Cc1ccc2ccccc2c1			HeLa	EC50	luciferase / reporter gene	1–5 µM
CCN(CCNC(C)=O)c1cc(C)nn2c(-c3ccc(OC)c(OC)c3)c(C)nc12			H9	EC50	p24	5 µM
CC(C)(C)S(=O)(=O)C[C@@H](Cc1cccc2ccccc12)C(=O)N[C@H](C(=O)N[C@@H](Cc1ccccc1)[C@@H](O)[C@H](O)[C@H](Cc1ccccc1)NC(=O)[C@@H](NC(=O)[C@H](Cc1cccc2ccccc12)CS(=O)(=O)C(C)(C)C)C1CCCC1)C1CCCC1	D34		PBLC	EC50	p24	0.007 µM
COc1ccc(-c2c(C)nc3c(N4CC[C@@H](NC(C)=O)C4)cc(Cl)nn23)cc1			H9	EC50	p24	>100 µM
NC1=NS(=O)(=O)N(Cc2ccccc2)c2c1ncn2[C@H]1CS[C@@H](CO)O1	RF		MT-4	EC50		>100 µg/mL
CC1=C(O)c2c(oc(-c3ccccc3)cc2=O)C(C)(C)C1=O			C8166	EC50	MTT	>200 µM
O=C(C(=O)N1CCN(C(=O)c2ccccc2)CC1)c1ccc2nccnc2c1			HeLa	EC50	luciferase / reporter gene	1–5 µM
O=c1c2ccccc2nc2scnn12	IIIB		MT-4	EC50	cytopathic effect / MTT	82.05 µg/mL
C[Si](O)(O[Si](C)(CCCn1cnc2c(N)ncnc21)c1ccccc1)c1ccccc1	IIIB		MT-2	EC50	p24	16 µM
COc1ccc(C[C@H](NC(=O)[C@@H](NC(=O)[C@H](Cc2cccc3ccccc23)CS(=O)(=O)C(C)(C)C)C(C)C)[C@@H](O)[C@H](O)[C@H](Cc2ccc(OC)cc2OC)NC(=O)[C@@H](NC(=O)[C@H](Cc2cccc3ccccc23)CS(=O)(=O)C(C)(C)C)C(C)C)c(OC)c1	D34		PBLC	EC50	p24	0.175 µM
COc1ccc(/C=C2/N=C(c3ccccc3)N(c3nc(C)cc(=O)[nH]3)C2=O)cc1				EC50	RT activity	56.24 µg/mL
CCc1c(Cc2ccc(C)cc2)n(COCC2CC2)c(=O)[nH]c1=O	N119	Y181C	MT-4	EC50	MTT	>100 µM
COc1ccc(-c2c(C)nc3c(N4CC[C@@H](NC(=O)Nc5ccccc5)C4)cc(C)nn23)cc1OC			H9	EC50	p24	0.2 µM
O=C(O)CN(CCN(CC(=O)O)Cc1cnc2c(O)cccc2c1)CC(=O)O	HXB2		MT-4	EC50	RT activity	9.6 µM
Cc1cn([C@@H]2CC[C@H](COC(=O)CCCCCCCCCCC(=O)OC[C@H]3O[C@@H](n4cc(C)c(=O)[nH]c4=O)C[C@@H]3N=[N+]=[N-])O2)c(=O)[nH]c1=O	IIIB		CEM	EC50		0.004 µM
COC(c1ccccc1)C(F)(F)c1nc2ccccc2o1	LAI		CEM + CEM-SS	EC50	RT activity	>100 µM
O=C1C=CN([C@@H]2CS[C@@H](CO)O2)S(=O)(=O)N1	RF		MT-4	EC50		>100 µg/mL
Cc1cn([C@H]2C[C@H](N=[N+]=[N-])[C@@H](CO)O2)c(=O)[nH]c1=O			PBMC	EC50	RT activity	0.00037 µM
CC(C)[C@H](NC(=O)C(CN)Cc1ccccc1)C(=O)N[C@@H](Cc1ccccc1)[C@@H](O)[C@H](O)[C@H](Cc1ccccc1)NC(=O)[C@@H](NC(=O)C(CN)Cc1ccccc1)C(C)C	D34		PBLC	EC50	p24	>25 µM
COc1ccc(-c2c(C)nc3c(N4CC[C@@H](N=[N+]=[N-])C4)cc(C)nn23)cc1OC			H9	EC50	p24	0.7 µM
C[C@@H]1CN(C(=O)c2ccccc2)CCN1C(=O)C(=O)c1ccc2ccccc2n1			HeLa	EC50	luciferase / reporter gene	<1 µM
Cc1cc(C)c2c(c1)N[C@H](c1cccc([N+](=O)[O-])c1)C[C@@H]2N1CCCC1=O	NL4-3		MT-2	EC50	MTT	>50 µM
C=Cn1cc(C(=O)O)c(=O)c2ccc(N3CCN(c4ccccn4)CC3)cc21	IIIB		PBMC	EC50		0.61 µM
C[Si](C)(CCCSc1nc2cc(Cl)ccc2s1)O[Si](C)(C)CCCSc1nc2cc(Cl)ccc2s1	IIIB		MT-2	EC50	MTT	11 µM
NC1=NS(=O)(=O)N([C@H]2CS[C@@H](CO)O2)C=C1	RF		MT-4	EC50		>100 µg/mL
C=Cn1cc(C(=O)O)c(=O)c2ccc(N3CCN(c4nc5ccccc5s4)CC3)cc21	IIIB		MT-4	EC50	MTT	0.005 µM
COc1ccc(Nc2nn3c(=O)c4ccccc4nc3s2)cc1	IIIB		MT-4	EC50	cytopathic effect / MTT	>99.15 µg/mL
CC(=O)N1CCn2c(nc(C(=O)NCc3ccc(F)cc3)c(O)c2=O)C1CN(C)C			MT-4	EC50	p24	<50 µM
C/C(=N\NC(=O)CN1c2c(-c3ccccc3)n[nH]c2-c2ccccc2S1(=O)=O)c1sc(N)nc1C			PBMC	EC90	RT activity	>100 µM
Cc1cn([C@H]2C[C@H](N=[N+]=[N-])[C@@H](CO)O2)c(=O)[nH]c1=O			C8166	EC50	MTT	0.0152 µM
CCc1c(Cc2ccc(C)cc2)n(COCc2ccccc2)c(=O)[nH]c1=O	EFVR	K103R/V179D/P225H	MT-4	EC50	MTT	>44 µM
Nc1cccc([C@@H]2C[C@H](N3CCCC3=O)c3ccccc3N2)c1	NL4-3		MT-2	EC50	MTT	>50 µM
Cc1coc(CN2CCn3c(nc(C(=O)NCc4ccc(F)cc4)c(O)c3=O)C2(C)C)n1			MT-4	EC50	p24	<1 µM
C/C(=N\NC(=O)CN1c2c(-c3ccccc3)n[nH]c2-c2ccccc2S1(=O)=O)c1ccc[nH]1			PBMC	EC90	RT activity	>100 µM
Cc1cc2nc(-c3cccc([N+](=O)[O-])c3)ccc2c(C)c1C	NL4-3		MT-2	EC50	MTT	>50 µM
CCCC(C(=O)O)c1c(C)nc2ccc(Cl)cc2c1-c1ccccc1			MT-4	EC50	MTT	2.35 µM
NC(=O)c1cccn1S(=O)(=O)c1ccccc1N	IIIB		MT-4	EC50	cytopathic effect / MTT	>200 µM
O=C(c1ccc(F)cc1)C(F)(F)c1nc2ccccc2o1	LAI		CEM + CEM-SS	EC50	RT activity	>100 µM
CC1(C)c2nc(C(=O)NCc3ccc(F)cc3)c(O)c(=O)n2CCN1Cc1cn[nH]n1			MT-4	EC50	p24	<1 µM
NC1=NS(=O)(=O)N([C@@H]2CS[C@@H](CO)O2)C=C1	RF		MT-4	EC50		>100 µg/mL
CC(C)[C@H](NC(=O)[C@H](Cc1cccc2ccccc12)CS(=O)(=O)C(C)(C)C)C(=O)N[C@@H](Cc1ccccc1)[C@H](N)[C@H](O)[C@H](Cc1ccccc1)NC(=O)[C@@H](NC(=O)[C@H](Cc1cccc2ccccc12)CS(=O)(=O)C(C)(C)C)C(C)C	D34		PBLC	EC50	p24	>100 µM